Source: PMC3597823

Experiments:
[1] = target: N1 peptide P2 ([change]–94), Myc-tagged (murine); experiment: SPR
[2] = target: N1 peptide P1 ([change]–94), Myc-tagged (murine); experiment: SPR

synthetic Aβ_(1–42) oligomers (Aβ-derived diffusible ligands) (from UniProt P05067) (peptide)
decrease of binding against N1 [1]: 72%
koff [1]: 0.000137 s⁻¹
kon [2]: 8710 M⁻¹ s⁻¹
